{
  "sequences": {"note": "The chains behind the UniProt entries cited, without tags or fusion partners.", "UniProt P25774, whole entry, looked up": "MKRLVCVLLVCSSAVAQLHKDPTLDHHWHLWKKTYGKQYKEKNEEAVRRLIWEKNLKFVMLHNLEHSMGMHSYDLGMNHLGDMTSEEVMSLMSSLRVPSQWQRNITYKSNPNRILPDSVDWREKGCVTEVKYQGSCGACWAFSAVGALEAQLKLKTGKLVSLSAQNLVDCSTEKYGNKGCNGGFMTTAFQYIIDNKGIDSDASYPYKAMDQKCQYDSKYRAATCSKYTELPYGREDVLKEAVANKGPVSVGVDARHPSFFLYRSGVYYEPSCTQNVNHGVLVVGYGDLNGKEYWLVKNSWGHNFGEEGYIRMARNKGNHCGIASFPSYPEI"},
  "source": "ChEMBL document CHEMBL6120945",
  "about": "“Peptidomimetic Analogues Act as Effective Inhibitors against SARS-CoV-2 by Blocking the Function of Cathepsin L” (J Med Chem, 2024)",
  "key": {"Homo sapiens": {"species_on_record": "Homo sapiens", "experiment": "Binding affinity to human recombinant Cathepsin L-like protease using Z-FR-AMC as substrate assessed as Kinact/Ki ratio preincubated for 30 mins followed by substrate addition and measured after 1 hr by Morrison equation based analysis", "conditions": "time 1.5 hrs"}, "Cathepsin B": {"molecular_target": "Cathepsin B (Homo sapiens, UniProt P07858)", "experiment": "Binding affinity to Cathepsin B (unknown origin) assessed as Kinact/Ki ratio by Morrison equation based analysis"}, "[1]": {"molecular_target": "Cathepsin S (Homo sapiens) (UniProt P25774)", "experiment": "Binding affinity to Cathepsin S (unknown origin) assessed as Kinact/Ki ratio by Morrison equation based analysis"}, "[2]": {"molecular_target": "T1, Cathepsin L2 (Homo sapiens) (UniProt O60911)", "T1 sequence (whole entry)": "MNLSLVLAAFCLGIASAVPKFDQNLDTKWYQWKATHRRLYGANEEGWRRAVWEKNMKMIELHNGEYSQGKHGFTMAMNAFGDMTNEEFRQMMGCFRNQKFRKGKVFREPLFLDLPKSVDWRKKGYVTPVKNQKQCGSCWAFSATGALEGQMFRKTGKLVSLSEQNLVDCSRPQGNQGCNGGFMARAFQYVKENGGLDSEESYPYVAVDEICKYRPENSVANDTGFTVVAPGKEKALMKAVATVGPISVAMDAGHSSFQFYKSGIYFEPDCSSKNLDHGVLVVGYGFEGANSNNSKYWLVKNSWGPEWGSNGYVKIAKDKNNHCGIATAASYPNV", "experiment": "Binding affinity to Cathepsin V (unknown origin) assessed as Kinact/Ki ratio by Morrison equation based analysis"}},
  "data": [
    {"smiles": "O=C(N[C@@H](Cc1ccc(F)cc1)C(=O)N[C@@H](Cc1ccccc1)C(=O)CCl)c1cccc2ccccc12", "values": [
      {"measurement": "Ratio", "setting": "Homo sapiens", "result": "6.83 10^6/s/M"},
      {"measurement": "Ratio", "setting": "Cathepsin B", "result": "5.39 10^3/s/M"},
      {"measurement": "Ratio", "setting": "[1]", "result": "1.92 10^3/s/M"},
      {"measurement": "Ratio", "setting": "[2]", "result": "5.36 10^4/s/M"}
    ]}
  ]
}
